Compound potency records, mixed from different reports. Data source: NIAID ChemDB in PubChem.

Common to all: tests in culture; organism: Pneumocystis carinii; measure: inhibition

Inhibition is in % at the dose shown (toxicity tests: loss of growth or viability). Lines come from different laboratories, so protocols vary. Blank or dashed fields: not listed here.

SMILES,conditions,tested at,cell line,value
CC(C)CN=C(N)c1ccc(N2CCCN(c3ccc(C(N)=NCC(C)C)cc3)CC2)cc1,,1 µM,,39%
C(=C/COc1ccc(C2=NCCN2)cc1)/COc1ccc(C2=NCCN2)cc1,,0.2 µM,,75%
CC(=O)Nc1ccc(C(=O)O)cc1,,1000 µM,,80%
CCC(C)n1ncn(-c2ccc(N3CCN(c4ccc(OC[C@H]5CO[C@](Cn6cncn6)(c6ccc(Cl)cc6Cl)O5)cc4)CC3)cc2)c1=O,10 d,10 µg/mL,WI-38,23%
CCCCCCCN=C(N)c1ccc(N2CCN(c3ccccc3)CC2)cc1,,0.1 µg/mL,,0%
CC(C)(C)CN=C(N)c1ccc(N2CCCN(c3ccc(C(N)=NCC(C)(C)C)cc3)CC2)cc1,,1 µM,,35%
CCc1c(O)c(=O)ccn1CC,7 d,18 µM,Human fibroblasts,34%
CCCCCCN=C(N)c1ccc(N2CCN(c3ccccc3)CC2)cc1,,0.1 µg/mL,,56%
CC(=O)N1CCN(c2ccc(OC[C@H]3CO[C@](Cn4ccnc4)(c4ccc(Cl)cc4Cl)O3)cc2)CC1,10 d,10 µg/mL,WI-38,55%
N=C(N)c1ccc(OC[C@@H](O)[C@@H](O)COc2ccc(C(=N)N)cc2)cc1,,0.2 µM,,22%
COCCn1ccc(=O)c(O)c1C,7 d,72 µM,Human fibroblasts,81%
NCCCNCCCCCCCNCCCN,,30 µM,,0%
NC(=NCc1ccc(F)cc1)c1ccc(N2CCN(c3ccccc3)CC2)cc1,,0.1 µg/mL,,0%
CC(=O)N(O)CCCCCNC(=O)CCC(=O)N(O)CCCCCNC(=O)CCC(=O)N(O)CCCCCN.[Mg],7 d,30 µM,Human fibroblasts,91%
CCN=C(N)c1ccc(N2CCN(c3ccccc3)CC2)cc1,,10 µg/mL,,87%
CN(C)c1nc(N)c(C(=O)N=C(N)N)nc1Cl,,100 µM,,31%
CCCCN=C(N)c1ccc(N2CCN(c3ccccc3)CC2)cc1,,50 µg/mL,,94%
Clc1ccc(COC(Cn2ccnc2)c2ccc(Cl)cc2Cl)c(Cl)c1,10 d,10 µg/mL,WI-38,76%
CCCCCCCCN=C(N)c1ccc(N2CCN(c3ccccc3)CC2)cc1,,50 µg/mL,,80%
NC(=NCC1CCCC1)c1ccc(N2CCCN(c3ccc(C(N)=NCC4CCCC4)cc3)CC2)cc1,,1 µM,,0%
N=C(N)c1ccc(OCCCCOc2ccc(C(=N)N)cc2)cc1,,0.2 µM,,61%
CCCCCN=C(N)c1ccc(N2CCN(c3ccccc3)CC2)cc1,,50 µg/mL,,90%

Again, the opening 3 rows:

SMILES	conditions	tested at	cell line	value
CC(C)CN=C(N)c1ccc(N2CCCN(c3ccc(C(N)=NCC(C)C)cc3)CC2)cc1		1 µM		39%
C(=C/COc1ccc(C2=NCCN2)cc1)/COc1ccc(C2=NCCN2)cc1		0.2 µM		75%
CC(=O)Nc1ccc(C(=O)O)cc1		1000 µM		80%